Assay results taken from PMC9603813, “Genome-Wide Analysis Reveals that PhoP Regulates Pathogenicity in Riemerella anatipestifer”.

Biological target: T1, His6-PhoP (Riemerella anatipestifer RA-YM) (UniProt E4TAE7)
T1 sequence (looked up, limits assumed): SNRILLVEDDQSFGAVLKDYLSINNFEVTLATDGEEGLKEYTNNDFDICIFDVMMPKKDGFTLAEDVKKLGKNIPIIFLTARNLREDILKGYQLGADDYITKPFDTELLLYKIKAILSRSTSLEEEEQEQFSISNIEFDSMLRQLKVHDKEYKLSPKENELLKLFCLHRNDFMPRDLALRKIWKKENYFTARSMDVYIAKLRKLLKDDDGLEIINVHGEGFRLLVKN
Experiment: EMSA
Conditions: recombinant protein, protein details: His6 (pET-28a), label: 5' biotin on strand 1

[1] = phosphorylated by acetyl phosphate

Sequence | binding result [1] | binding result (unphosphorylated)
GTTATCAAATTTTTATGATAAAATTAGATGCTGTT (double strand) [dnaG motif probe] | binds | binds
TAATTTAACAAACTTTAACACAAATTTAGCTTAAT (double strand) [moxR motif probe] | binds | binds

The exact form of at least one protein or probe is not confirmed. At least one verdict was read from the data and is not stated in words by the source. Where a protein sequence is shown, tags need not be part of it.
